Experimental data from ChEMBL document CHEMBL1134771, “Synthesis and antimalarial activity of novel medium-sized 1,2,4,5-tetraoxacycloalkanes” (J Med Chem, 2001).

Each molecule was assayed on Plasmodium falciparum (assay: In vitro antimalarial activity for Plasmodium falciparum).
Type: functional, organism-based
Outline: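 Chloroquine-sensitive P. falciparum FCR-3 strain cultured in vitro; EC50 determined.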

Compound | EC50
CCCCC1(CCCC)OOCCCOO1 | 280 nM
OOC1(OO)CCCCCCCCCCC1 | 100000 nM
C1CCC(C2OOCCCOO2)CC1 | 200 nM
C1CCCC2(CCC1)OOCCCOO2 | 200 nM
C1CCCC2(CC1)OOCCCOO2 | 200 nM
